PubChem BioAssay AID504761 – Drosophila RNAi Screening Center | 2011
The deposit covers about 22,000 reagents; this is a random part of those with a known target gene and a result. In the full data, 116 (0.52%) are marked active. 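Calls depend on retest data that are not deposited; infection was ranked per plate without normalising between plates; the unit of the infection score is not given.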 The raw values are shown without normalisation. A number with no mark means an inactive call. Reagents against one gene are numbered here. Further read-outs or replicates are left out here. Not stated in the record: the amount of reagent, the time to read-out.

Purpose: 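Insect host genes that dengue virus relies on to spread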 (primary screen)
Cell system: D.Mel-2 cells from Drosophila
Reagent: long dsRNA against Drosophila genes
Treatment: infection with dengue virus type 2; dose and infection time not stated
Read-out: 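Cells stained for dengue envelope protein and imaged; percent of infected cells per well on duplicate plates, ranked by infection, with stained nuclei counted for cell number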
Reading the numbers: infection score: higher = more virus-infected cells; cell count: higher = more cells in the well
Rule for the call: 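Low infection ranks in the two replicates (chance level up to 0.065) followed by a retest with a 1.5-fold or larger significant decrease, p below 0.05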
Calls: active = confirmed: knock-down lowers infection; inactive = not picked or not confirmed

CG7320 (GeneID 40010) #1: infection score, replicate 1 = 3.56; cell count, replicate 1 = 6608
CG7320 (GeneID 40010) #2: infection score, replicate 1 = 6.18; cell count, replicate 1 = 5518
prel (GeneID 35969): infection score, replicate 1 = 11.9; cell count, replicate 1 = 5900
CG4022 (GeneID 39082) #1: infection score, replicate 1 = 2.6; cell count, replicate 1 = 6039
CG4022 (GeneID 39082) #2: infection score, replicate 1 = 5.93; cell count, replicate 1 = 6022
pAbp (GeneID 37070): infection score, replicate 1 = 32.5; cell count, replicate 1 = 1742
CG32814 (GeneID 318223) #1: infection score, replicate 1 = 2.55; cell count, replicate 1 = 6719
CG32814 (GeneID 318223) #2: infection score, replicate 1 = 14.1; cell count, replicate 1 = 3309
Dph3 (GeneID 41352) #1: infection score, replicate 1 = 4.93; cell count, replicate 1 = 6149
Dph3 (GeneID 41352) #2: infection score, replicate 1 = 10.9; cell count, replicate 1 = 6547

Continued; the last 4 above are carried over.
CG32814 (GeneID 318223) #1: infection score, replicate 1 = 2.55; cell count, replicate 1 = 6719
CG32814 (GeneID 318223) #2: infection score, replicate 1 = 14.1; cell count, replicate 1 = 3309
Dph3 (GeneID 41352) #1: infection score, replicate 1 = 4.93; cell count, replicate 1 = 6149
Dph3 (GeneID 41352) #2: infection score, replicate 1 = 10.9; cell count, replicate 1 = 6547
CG7139 (GeneID 40448) #1: cell count, replicate 1 = 151
CG7139 (GeneID 40448) #2: infection score, replicate 1 = 8.99; cell count, replicate 1 = 6326
CG13474 (GeneID 39600): infection score, replicate 1 = 1.55; cell count, replicate 1 = 5732
beat-Vc (GeneID 41575) #1: infection score, replicate 1 = 4.55; cell count, replicate 1 = 5974
beat-Vc (GeneID 41575) #2: infection score, replicate 1 = 1.39; cell count, replicate 1 = 6278
CG17121 (GeneID 42721): infection score, replicate 1 = 5.63; cell count, replicate 1 = 6234
Rgk2 (GeneID 37132) #1: infection score, replicate 1 = 3.43; cell count, replicate 1 = 5541
Rgk2 (GeneID 37132) #2: infection score, replicate 1 = 2.81; cell count, replicate 1 = 5689
Rgk2 (GeneID 37132) #3: infection score, replicate 1 = 7.6; cell count, replicate 1 = 5788
Rgk2 (GeneID 37132) #4: infection score, replicate 1 = 14; cell count, replicate 1 = 2878
l(3)73Ah (GeneID 48903): infection score, replicate 1 = 5.58; cell count, replicate 1 = 5790
Itgbn (GeneID 35368): infection score, replicate 1 = 11.9; cell count, replicate 1 = 4606
CG7579 (GeneID 39714): infection score, replicate 1 = 0.2 (active); cell count, replicate 1 = 5864
YME1L (GeneID 37636): infection score, replicate 1 = 5.65; cell count, replicate 1 = 5716
CG13041 (GeneID 39801) #1: infection score, replicate 1 = 1.83; cell count, replicate 1 = 5941
CG13041 (GeneID 39801) #2: infection score, replicate 1 = 8.05; cell count, replicate 1 = 6645
Obp50a (GeneID 246432) #1: infection score, replicate 1 = 8.81; cell count, replicate 1 = 6390
Obp50a (GeneID 246432) #2: infection score, replicate 1 = 12.6; cell count, replicate 1 = 4483
